Results of unrelated studies side by side (data: NIAID ChemDB).

Shared fields: tests on isolated targets; protein: CCR5; endpoint: IC50

ICn is the concentration giving n% inhibition. Conditions beyond the fields shown may differ between rows.

| structure | read by | value |
|---|---|---|
| CCCCOCCOc1ccc(-c2ccc3c(c2)C=C(C(=O)Nc2ccc(S(=O)Cc4nncn4C)cc2)CCN3CC(C)C)cc1 | radiometric | 0.0044 µM |
| CC(C)C(=O)N1CCC(C(=O)N(CCCN2CCC(Cc3ccccc3)CC2)c2ccccc2)CC1 | radiometric | 0.039 µM |
| CCCCOCCOc1ccc(-c2ccc3c(c2)C=C(C(=O)Nc2ccc(SCc4cncn4CCC)cc2)CCN3CC(C)C)cc1 | radiometric | 0.019 µM |
| O=C(C1CCNCC1)N(CCCN1CCC(Cc2ccccc2)CC1)c1ccccc1 | radiometric | 4.3 µM |
| CCCCOCCOc1ccc(-c2ccc3c(c2)C=C(C(=O)Nc2ccc(S(=O)Cc4nccn4CCCC)cc2)CCN3CC(C)C)cc1 | radiometric | 0.014 µM |
| CCN(C(=O)Cc1ccc(S(C)(=O)=O)cc1)C1CCN(CC[C@H](NC(=O)C2CCN(C(=O)c3ccc(Cl)cc3)CC2)c2ccccc2)CC1 | fluorescence | <50 µM |
| Cc1ccc(-c2ccc3c(c2)C=C(C(=O)Nc2ccc(C[N+](C)(C)C4CCOCC4)cc2)CCC3)cc1 | radiometric | 0.0014 µM |
| O=C(OCc1ccccc1)N1CCCC(C(=O)N(CCCN2CCC(Cc3ccccc3)CC2)c2ccccc2)C1 | radiometric | 1.2 µM |
| COc1ccc(NC(=O)N(CCCN2CCC(Cc3ccc(F)cc3)CC2)c2ccccc2)cc1 | radiometric | 0.03 µM |
| CCCCOCCOc1ccc(-c2ccc3c(c2)C=C(C(=O)Nc2ccc(S(=O)Cc4cn(CCC)cn4)cc2)CCN3CC(C)C)cc1 | radiometric | 0.044 µM |
| CN1CC(C(=O)N(CCCN2CCC(Cc3ccccc3)CC2)c2ccccc2)CC1=O | radiometric | 0.48 µM |
| O=C(Nc1ccc(C(F)(F)F)cc1)N(CCCN1CCC(Cc2ccc(F)cc2)CC1)c1ccccc1 | radiometric | 0.014 µM |
| CCN(C(=O)Cc1ccc(S(C)(=O)=O)cc1)C1CCN(CC[C@H](NC(=O)C2CCN(S(=O)(=O)Cc3ccccc3)CC2)c2ccccc2)CC1 | fluorescence | <50 µM |
| CCCCOCCOc1ccc(-c2ccc3c(c2)C=C(C(=O)Nc2ccc(S(=O)Cc4ccncc4)cc2)CCN3CC(C)C)cc1 | radiometric | 0.16 µM |
| O=C(OCc1ccccc1)N(CCCN1CCC(Cc2ccccc2)CC1)c1ccccc1 | radiometric | 2 µM |
| CCN(C(=O)Cc1ccc(S(C)(=O)=O)cc1)C1CCN(CC[C@H](NC(=O)OCc2ccccc2)c2ccccc2)CC1 | fluorescence | <50 µM |
| CCOC(=O)c1ccc(NC(=O)N(CCCN2CCC(Cc3ccc(F)cc3)CC2)c2ccccc2)cc1 | radiometric | 0.28 µM |
| CCN(C(=O)Cc1ccc(S(C)(=O)=O)cc1)C1CCN(CC[C@H](NC(=O)Oc2ccc(Cl)cc2)c2ccccc2)CC1 | fluorescence | <50 µM |
| O=C(OCc1ccccc1)N1CCC(C(=O)N(CCCN2CCC(Cc3ccccc3)CC2)c2ccccc2)CC1 | radiometric | 0.048 µM |

The last 3 rows once more:

structure,read by,value
CCOC(=O)c1ccc(NC(=O)N(CCCN2CCC(Cc3ccc(F)cc3)CC2)c2ccccc2)cc1,radiometric,0.28 µM
CCN(C(=O)Cc1ccc(S(C)(=O)=O)cc1)C1CCN(CC[C@H](NC(=O)Oc2ccc(Cl)cc2)c2ccccc2)CC1,fluorescence,<50 µM
O=C(OCc1ccccc1)N1CCC(C(=O)N(CCCN2CCC(Cc3ccccc3)CC2)c2ccccc2)CC1,radiometric,0.048 µM